PubChem BioAssay AID1224833 – University of Georgia | 2016
Test: 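Host factors restraining rotavirus as candidate antiviral genes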 (primary screen). Cells: monkey MA104 kidney cells. Reagents: siRNA pool against human genes, 50 nM. Duration: 48 h knock-down before infection; read 24 h after infection. Challenge: infection with rotavirus strain RV3 two days after transfection; infectious dose for this stage not given. Measured: 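z-score of rotavirus antigen signal per well, from a fluorescent immunoassay, relative to non-targeting control wells on the same plate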. Direction: z-score vs non-targeting control: higher = more rotavirus replication than with non-targeting control. Active means: In these data the active calls have z-score vs non-targeting control at about -1 or lower, or at about 1 or higher. Calls: active = z-score beyond 1 either way; inactive = z-score within 1 of zero.
Shown is one part, drawn at random, of about 12,000 deposited reagents. Over the whole deposit, about 5,600 (46%) were called active. 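Active calls cover z-scores past 1 in both directions, so they include lowered as well as raised rotavirus replication.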 Unmarked entries are inactive.

no.	gene	z-score vs non-targeting control
1	SLC1A3	-1.59 (active)
2	KRTAP2-4	-0.74
3	SLIT3	-0.339
4	OR2T6	0.227
5	CPA3	1.45 (active)
6	TP53INP1	-1.99 (active)
7	OR4D9	-2.26 (active)
8	XKR6	-2.49 (active)
9	BMPER	-1.08 (active)
10	SLC24A4	-1.63 (active)
11	KEL	0.669
12	TMIE	-1.25 (active)
13	HIBADH	0.504
14	AQP4	2.17 (active)
15	POLR3GL	-1.6 (active)
16	PEX1	-1.08 (active)
17	SNCAIP	0.756
18	LRRC4	0.837
19	LSM1	-0.665
20	OR1C1	0.817
21	POLD4	-1.57 (active)
22	TMEM87A	1.17 (active)
23	OSCAR	-2.23 (active)
24	PRAMEF1	1.16 (active)
25	TFCP2	2.54 (active)
26	MTERF3	0.238
27	CNNM2	-0.975
28	CYP3A43	0.178
29	RGPD5	-0.872
30	TET2	-1.51 (active)
31	SEC24D	0.372
32	MTO1	-0.991
33	CNIH2	0.0157
34	PPA1	1.64 (active)
35	TDRD7	-0.699
36	FJX1	-1.45 (active)
37	OAZ3	-1.61 (active)
38	ATG4D	1.45 (active)
39	KIF26A	0.86
40	APOBEC3B	-1.46 (active)
41	BOK	-1.31 (active)
42	DDAH2	-1.19 (active)
43	ARL3	-0.191
44	SECISBP2L	1.51 (active)
45	DLEU7	-0.0216
46	ARL6IP1	0.639
47	CNTD1	0.486
48	DERL2	0.916
49	BPIFA2	-1.56 (active)
50	MARVELD2	-0.154
51	TRARG1	0.608
52	CLP1	-0.633
53	RANBP3	1.74 (active)
54	FOXJ2	-1.16 (active)
55	RAB6B	-1.48 (active)
56	IL25	-1.06 (active)
57	ZDHHC15	-1.18 (active)
58	CALB2	-2.15 (active)
59	CGB5	-2.08 (active)
60	TTC6	0.173
61	ZBTB43	-2.92 (active)
62	SUMO3	0.0753
63	TLCD3B	-0.572
64	ACAN	-0.733
65	AIFM1	1.15 (active)
66	EDNRA	-1.16 (active)
67	CRTC3	-2.14 (active)
68	INVS	0.914
69	CRMP1	1.46 (active)
70	NPC2	-1.09 (active)
71	CHD8	-1.07 (active)
72	FMNL3	-0.514
73	IKZF3	-1.06 (active)
74	IRF6	1.19 (active)
75	GFAP	1.99 (active)
76	RXFP4	-0.533
77	CYB5R2	0.733
78	BCL2L12	-1.15 (active)
79	TSGA13	-1.37 (active)
80	MED22	-1.17 (active)
81	NCOA6	-1.16 (active)
82	COL24A1	-1.18 (active)
83	TFDP1	-1.9 (active)
84	TLN2	1.16 (active)
85	OR6X1	0.528
86	ARSB	-0.759
87	CD3D	1.48 (active)
88	HLA-DRB4	1.71 (active)
89	PCDH19	0.174
90	TMEM179	2.45 (active)
91	DPYD	-0.504
92	SCIMP	-2.03 (active)
93	HIP1	-1.63 (active)
94	MYF5	-1.54 (active)
95	TBC1D2	0.0479
96	MOB3A	0.356
97	NDUFS1	-0.722
98	SORBS1	-1.67 (active)
99	LRP12	-0.754
100	XPO6	-1.15 (active)
101	OR8H1	-1.72 (active)
102	GAGE8	1.24 (active)
103	ALOX5	-0.937
104	BBOX1	-1.93 (active)
105	SLF2	-1.01 (active)
106	RTN4	0.0655
107	MDH1B	-0.841
108	MRPS21	1.08 (active)
109	MTUS1	-2.1 (active)
110	H2AC21	-2.03 (active)

11 of these entries, reformatted:
gene,z-score vs non-targeting control
CD3D,1.48 (active)
HLA-DRB4,1.71 (active)
PCDH19,0.174
TMEM179,2.45 (active)
DPYD,-0.504
SCIMP,-2.03 (active)
HIP1,-1.63 (active)
MYF5,-1.54 (active)
TBC1D2,0.0479
MOB3A,0.356
NDUFS1,-0.722
